Source: patent US5451518A, “Purified human ceramide-activated protein kinase” (Sloan-Kettering Institute for Cancer Research, priority 1992, dated 1995)

System: ceramide-activated protein kinase
Conditions: HL-60; cholera toxin 10 nM, retinoic acid 0.5 μM, butyrate 0.5 mM

Row | SMILES | effect on kinase activity (in words)
1 | CCCCCCCCCCCCC/C=C/[C@@H](O)[C@H](CO)NC(=O)CCCCCCC [C8 -cer, N-octanoylsphingosine, reference compound] | quantitatively similar to that obtained with a maximal concentration of TNF-α
2 | CC1=C(/C=C/C(C)=C/C=C/C(C)=C/C(=O)O)C(C)(C)CCC1 [retinoic acid, reference compound] | not stimulated
